Experimental data from PubChem BioAssay AID1549 (Sanford-Burnham Center for Chemical Genomics, 2009).
Calls of active or inactive are those of the source. The rule behind the calls is not given here.

Biological target: Influenza A virus M2 proton channel (A/TW/4845/1999 H1N1)
Assay: M2 proton channel binding, NMR based, influenza A virus H1N1 strain (AID 1549)
Settings: NMR binding screen, M2 protein

SMILES	Kd
Cc1c2non([O-])c-2c(C)[n+](=O)[n+]1[O-]	inactive: > 4 mM
C[C@H]1C(=O)O[C@@H]2CCN3CC=C(COC(=O)[C@](C)(O)[C@]1(C)O)[C@H]23	inactive: > 4 mM
